“And” between values parts separate entries of the source, which are not always exact repeats. Identical values can stand only once.
Columns and labels:
[1] = test system: Eimeria acervulina oocysts; test: Birds tested for infectivity of treated oocysts; type: in vivo, chicks; settings: feces of 5 birds collected 5 days post inoculation
[2] = test system: unsporulated oocysts of Eimeria acervulina; test: Effect of liquid disinfectants on unsporulated oocysts (Example 7); type: cell-based; settings: Trial 1, 3 hours treatment, no treatment 78
[3] = test system: Oocysts of Eimeria acervulina; test: Effect of chemical disinfectants and UV light on sporulation rate (Table 16); type: cell-based; settings: 2.5% 2 hours (20° C.); incubated at 30° C. (20 hrs); positive control 76.1
[4] = test system: unsporulated oocysts of E. acervulina; test: Sporulation of unsporulated E. acervulina oocysts after disinfectant treatment (Examples 3 and 4); settings: for Sporulation rate (sporocyst stage only): control 69.8%
[5] = Group 3, chlorine treated 25,000 ppm
[6] = Group 4, chlorine treated 2,500 ppm
[7] = 2,500 ppm Cl2, 144 hrs at 4° C., 20 hrs at 29.5° C., total of samples
[8] = 25,000 ppm Cl2, 144 hrs at 4° C., 20 hrs at 29.5° C., total of samples
[9] = fresh scrapings incubated overnight at 29.5° C., followed by 25,000 ppm Cl2, listed as Cl2
[10] = fresh scrapings incubated overnight at 29.5° C., followed by 25,000 ppm Cl2, total

Chlorine
Infectivity, all pooled [1, 5]: +ve
Oocysts in feces at 100× Magnification [1, 5]: (~6/field)
Oocysts in feces at 100× Magnification (words) [1, 5]: Few
Infectivity, all pooled [1, 6]: +ve
Oocysts in feces at 100× Magnification [1, 6]: (~100/field)
Oocysts in feces at 100× Magnification (words) [1, 6]: Numerous
Sporulation rates (%) ([2]; 150 ppm): 89%
Sporulation rates (%) ([2]; 600 ppm): 70%
Sporulation Rate (%) [3]: 59.3%
Inhibiting sporulation (in words) ([4]; 2,500 ppm): highly effective
Sporulation rate (sporocyst stage only) ([4]; 2,500 ppm Cl2, 144 hrs at 4° C., 20 hrs at 29.5° C.): 123/369 = 33.3% Sporocyst stage only
Spr. total count [4, 7]: 123 ^
Unspr. total count [4, 7]: 246
Sporulation rate (sporocyst stage only) ([4]; 25,000 ppm Cl2, 144 hrs at 4° C., 20 hrs at 29.5° C.): 49/306 = 16% Sporocyst Stage only
Spr. total count [4, 8]: 49 ^
Unspr. total count [4, 8]: 257
Sporulation rate ([4]; fresh scrapings incubated overnight at 29.5° C., followed by 25,000 ppm Cl2): 367/476 = 77.1%
Spr. (sporulated oocysts counted per sample) [4, 9]: 115 and 133 and 119
Unspr. (unsporulated oocysts counted per sample) [4, 9]: 37 and 42 and 30
Spr. total count [4, 10]: 367
Unspr. total count [4, 10]: 109
Inhibiting sporulation (in words) ([4]; ~25,000 ppm): highly effective
